Test system: native TTX-S NaV channels in mouse DRG neurons
Assay: Manual whole cell patch clamp, native TTX-S NaV channels in mouse DRG neurons
Assay type: cell-based
Settings: 1 μM (highest concentration tested), 20% of NaV channels inactivated, n = 2

## C#CC[C@H](N)C(=O)N[C@@H](Cc1ccc(O)cc1)C(=O)N[C@H]1CSSC[C@@H]2NC(=O)[C@@H]3CSSC[C@@H](C(=O)N[C@@H](CCCNC(=N)N)C(=O)N[C@@H](CCCCN)C(=O)N[C@@H](CCC(=O)O)C(=O)N[C@H](C(N)=O)[C@@H](C)CC)NC(=O)[C@H](Cc4c[nH]c5ccccc45)NC(=O)[C@H](CC(C)C)NC(=O)[C@H](CCCCN)NC(=O)[C@H](CSSC[C@H](NC(=O)[C@H]([C@@H](C)O)NC(=O)[C@H](Cc4c[nH]c5ccccc45)NC(=O)[C@H](CCCC)NC(=O)[C@H](Cc4c[nH]c5ccccc45)NC(=O)[C@H](CCCCN)NC(=O)[C@H](CCC(N)=O)NC1=O)C(=O)N[C@@H](CC(=O)O)C(=O)N[C@@H](CO)C(=O)N[C@@H](CCCCN)C(=O)N[C@@H](CCCNC(=N)N)C(=O)N[C@@H](C)C(=O)N3)NC(=O)[C@H](CCCNC(=N)N)NC(=O)[C@H](CCC(=O)O)NC(=O)CNC(=O)[C@H](CCC(=O)O)NC2=O [AM-8394, Pra-[Nle6;Glu19,28]JzTx-V(1–29)]
  inhibition of TTX-S NaV channels in mDRG neurons: 3.5 ± 1.1%
